According to paper PMC9108200, “Antiviral Activity of Selected Lamiaceae Essential Oils and Their Monoterpenes Against SARS-Cov-2” (Frontiers in Pharmacology, 2022):

System: SARS-CoV-2
Type: cell-based
Details: monoterpenes; ratio of IC50 against Vero cells to IC50 against SARS-Cov2

SMILES	TI (therapeutic index)
Cc1ccc(C(C)C)cc1O [Carvacrol]	6.23
Cc1coc2c1CCC(C)C2 (centres unmarked) [Menthofuran]	3.28
